Paper PMC12293048, “New Benzimidazole 3′-Deoxynucleosides: Synthesis and Antiherpes Virus Properties” (Biomolecules, 2025)

How the values were obtained:
HSV-1/L2 = experiment: CPE inhibition assay, HSV-1 reference strain L2 in Vero E6 cells; type: cell-based, herpes simplex virus 1; settings: Vero E6, MOI 0.01
Procedure: (§1) Vero 6 cells for determining cytotoxicity and antiviral activity were cultured according to the method described in [29].
Vero E6 cells were then infected with the infection material at an MOI of 0.01 PFU/cell; incubation was performed at 37 °C in an atmosphere of 5% CO2. […] The duration of incubation was 48 h and 72 h for MOI 0.01 PFU/mL, respectively. […] The results of three independent experiments are shown in Table S1 (Supplementary Materials).

HSV-1/L2/R^ACV = type: cell-based, herpes simplex virus 1; settings: Vero E6, MOI 0.01, acyclovir-resistant strain
Procedure: as §1
In 96-well plastic plates with the generated cell monolayer, serial dilutions of the compounds were prepared at […] 1:2 with the maintenance medium (Eagle′s medium and medium 199, mixed in a ratio 1:1). Vero E6 cells were then infected with the infection material at an MOI of 0.01 PFU/cell; incubation was performed at 37 °C in an atmosphere of 5% CO2. Cytotoxicity was determined quantitatively by the trypan blue exclusion method and expressed as CD50: the concentration of the drug at which 50% of cells die after 72 h. […] The duration of incubation was 48 h and 72 h for MOI […], respectively. […] An antiviral activity was assessed by determining ID50 and ID95 (concentrations of compounds that inhibit the development of virus-induced CPE as compared with the control by 50% and almost completely). […] The results of three independent experiments are shown in Table S1 (Supplementary Materials).

Compound | SI (CD50/IC50) HSV-1/L2 (HSV-1/L2) | SI (CD50/IC50) HSV-1/L2/R^ACV (HSV-1/L2/R^ACV) | SI (CD50/IC50) HSV-1/L2 (HSV-1/L2; listed as 4,6-difluoro-benzimidazole) | SI (CD50/IC50) HSV-1/L2 (HSV-1/L2; listed as 4,5,6-trifluoro-1-(β-D-3′-deoxyribofuranosyl)benzimidazole)
c1ccc2[nH]cnc2c1 [Compound 1, Benzimidazole] | 5.96 | 5.96 |  | 
Fc1cc2nc[nH]c2cc1F [Compound 2, 5,6-Difluorobenzimidazole] | 12.32 | 6.16 |  | 
Fc1cc(F)c2[nH]cnc2c1 [Compound 3, 4,6-Difluorobenzimidazole] | 3.07 | 3.07 | 12.32 | 
Fc1cc2nc[nH]c2c(F)c1F [Compound 4, 4,5,6-Trifluorobenzimidazole] | 6.00 | 6.00 |  | 
COc1c(F)cc2nc[nH]c2c1F [Compound 5, 4,6-Difluoro-5-methoxybenzimidazole] | 2.86 | 2.14 |  | 
Nc1nc2ccccc2[nH]1 [Compound 6, 2-aminobenzimidazole] | 3.03 | 2.02 |  | 
COc1cc2nc(N)[nH]c2cc1F [Compound 7, 2-amino-5-fluoro-6-methoxybenzimidazole] | 12.55 | 12.55 |  | 
Nc1nc2cc(F)c(F)cc2[nH]1 [Compound 8, 2-Amino-5,6-difluorobenzimidazole] | 4.49 | 4.49 |  | 
OC[C@@H]1C[C@@H](O)[C@H](n2cnc3ccccc32)O1 [Compound 9, 1-(β-D-3′-Deoxyribofuranosyl)benzimidazole] | > 8 | > 4 |  | 
OC[C@@H]1C[C@@H](O)[C@H](n2cnc3cc(F)c(F)cc32)O1 [Compound 10, 5,6-Difluoro-1-(β-D-3′-deoxyribofuranosyl)benzimidazole] | 12 | 2 |  | 
OC[C@@H]1C[C@@H](O)[C@H](n2cnc3c(F)cc(F)cc32)O1 [Compound 11a, 4,6-difluoro-1-(β-D-3′-deoxyribofuranosyl)benzimidazole] | > 8 | > 1 |  | 
OC[C@@H]1C[C@@H](O)[C@H](n2cnc3c(F)c(F)c(F)cc32)O1 [Compound 12a, 4,5,6-trifluoro-1-(β-D-3′-deoxyribofuranosyl)benzimidazole] | 16 | 8 |  | 16.00
COc1c(F)cc2c(ncn2[C@@H]2O[C@H](CO)C[C@H]2O)c1F [Compound 13, 4,6-Difluoro-5-metoxy-1-(β-D-3′-deoxyribofuranosyl)benzimidazole] | > 3 | > 2 |  | 
Nc1nc2cc(F)c(F)cc2n1[C@@H]1O[C@H](CO)C[C@H]1O [Compound 16, 2-Amino-5,6-difluoro-1-(β-D-3′-deoxyribofuranosyl)benzimidazole] | 3 | 3 |  | 
